Record: PubChem BioAssay AID624099 (ICCB-Longwood, 2012)

Purpose: 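Host factors E2 relies on to silence an HPV18 LCR reporter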 (primary screen)
Cell system: human C33A cervical carcinoma cells (HPV-negative) stably expressing BPV1 E2 and an HPV18 LCR luciferase reporter
Knock-down reagent: siRNA pool against human genes, 40 nM
Duration: 72 h
Read-out: 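Per-well luciferase luminescence, z-scored on each plate against the plate mean and SD with control wells left out, then averaged across three replicate plates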
Scale: mean z-score and z-score: higher = stronger reporter signal, weaker E2 silencing
Call rule: 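Hit if mean z-score reaches 2 and two or more of three replicate z-scores also reach 2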
The deposit covers about 21,000 reagents; this is a part drawn at random. 497 of all reagents (2.4%) were called active. 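Higher z means weaker E2 silencing; only reporter increases were scored, and knock-downs that hurt cell survival may mask genuine repressor factors.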 A number with no mark means an inactive call.

SNX12 — mean z-score: 0.49; z-score, replicate A: 0.73; z-score, replicate B: 0.4; z-score, replicate C: 0.34
TRHDE-AS1 — mean z-score: 0.34; z-score, replicate A: 0.13; z-score, replicate B: 0.51; z-score, replicate C: 0.4
LOC389899 (retired record) — mean z-score: -0.39; z-score, replicate A: -0.36; z-score, replicate B: -0.18; z-score, replicate C: -0.64
LDAH — mean z-score: 0.66; z-score, replicate A: 0.92; z-score, replicate B: 0.29; z-score, replicate C: 0.76
DDX55 — mean z-score: 0.36; z-score, replicate A: 0.23; z-score, replicate B: 0.71; z-score, replicate C: 0.14
CYP2F1 — mean z-score: -0.55; z-score, replicate A: -0.59; z-score, replicate B: -0.77; z-score, replicate C: -0.31
AMER1 — mean z-score: -0.02; z-score, replicate A: -0.16; z-score, replicate B: 0.21; z-score, replicate C: -0.1
ZNF439 — mean z-score: 0.32; z-score, replicate A: 0.75; z-score, replicate B: 0.15; z-score, replicate C: 0.06
LOC343854 (retired record) — mean z-score: -0.78; z-score, replicate A: -0.96; z-score, replicate B: -0.72; z-score, replicate C: -0.65
SON — mean z-score: -1.76; z-score, replicate A: -1.85; z-score, replicate B: -1.77; z-score, replicate C: -1.67
POLR3B — mean z-score: 1.81; z-score, replicate A: 1.6; z-score, replicate B: 2; z-score, replicate C: 1.82

Already shown: an excerpt of the list.
LOC343854 (retired record) — mean z-score: -0.78; z-score, replicate A: -0.96; z-score, replicate B: -0.72; z-score, replicate C: -0.65
SON — mean z-score: -1.76; z-score, replicate A: -1.85; z-score, replicate B: -1.77; z-score, replicate C: -1.67

More reagents follow:
TNNI2 — mean z-score: 1.01; z-score, replicate A: 0.73; z-score, replicate B: 1.04; z-score, replicate C: 1.28
LOC389159 (retired record) — mean z-score: -1.57; z-score, replicate A: -1.89; z-score, replicate B: -1.48; z-score, replicate C: -1.34
HCN1 — mean z-score: -1.4; z-score, replicate A: -1.34; z-score, replicate B: -1.25; z-score, replicate C: -1.61
RSF1 — mean z-score: 0.91; z-score, replicate A: 0.77; z-score, replicate B: 1.2; z-score, replicate C: 0.78
ORC5 — mean z-score: 0.87; z-score, replicate A: 0.92; z-score, replicate B: 0.78; z-score, replicate C: 0.92
FRMD8 — mean z-score: 1.31; z-score, replicate A: 1.4; z-score, replicate B: 1.53; z-score, replicate C: 0.99
ARMC6 — mean z-score: -0.13; z-score, replicate A: 0.11; z-score, replicate B: -0.19; z-score, replicate C: -0.32
CHCHD2 — mean z-score: -0.3; z-score, replicate A: 0.13; z-score, replicate B: -0.26; z-score, replicate C: -0.78
CDRT4 — mean z-score: -0.77; z-score, replicate A: -0.6; z-score, replicate B: -1.07; z-score, replicate C: -0.64
SPO11 — mean z-score: 0.17; z-score, replicate A: 0.34; z-score, replicate B: 0.06; z-score, replicate C: 0.12
